Pooled drug test results. Numbers come from NIAID ChemDB, via PubChem.

Common to all: whole-cell or culture tests; species: Aspergillus flavus; measure: MIC50

Blank or dashed fields: not listed here. Lines come from different laboratories, so protocols vary. a–b is a range or a potency band. MIC50, MIC90 and the like: level of inhibition, or share of isolates inhibited.

compound,read by,result
Nc1[nH]c(=O)ncc1F,,>64 µg/mL
O=C(N/N=C/c1ccc(-n2ccnc2)cc1)c1ccc(Cl)cc1,broth dilution,>769.8 µM
CC(C)(O)CCCNc1cccc2ncccc12,turbidity,62.5 µg/mL
O=C(O)/C=C/c1ccc(O)cc1,agar,>1000 µg/mL
CC[C@@H]([C@H](C)O)n1ncn(-c2ccc(N3CCN(c4ccc(OC[C@@H]5CO[C@@](Cn6cncn6)(c6ccc(F)cc6F)C5)cc4)CC3)cc2)c1=O,,0.125–0.25 µg/mL
COc1cc(C(C)=O)ccc1O,agar,>1000 µg/mL
C[C@@H]1[C@H](O)[C@@H](C)/C=C/C=C/CC/C=C/C=C/C=C/C=C/C(O[C@H]2O[C@H](C)[C@@H](O)[C@H](N)[C@@H]2O)CC2O[C@](O)(CC(O)C(O)CCC(O)CC(O)CC(O)CC(=O)O[C@H]1C)CC(O)C2C(=O)O,broth dilution,>269 µM
OCCCCNc1cccc2cccnc12,turbidity,31.6 µg/mL
CNC(=S)N/N=C/c1ccc(-n2ccnc2)cc1,broth dilution,>964 µM
CCc1ccccc1O,agar,128 µg/mL
O=C(N/N=C\n1ccnc1)c1ccc(Cl)cc1,broth dilution,>1010 µM
COc1cc(C(=O)O)ccc1O,agar,>1000 µg/mL
O=C(N/N=C/c1ccc(-n2ccnc2)cc1)c1ccc([N+](=O)[O-])cc1,broth dilution,>745.6 µM
CCCCCOc1ccc(-c2ccc(-c3ccc(C(=O)N[C@H]4C[C@@H](O)[C@@H](O)NC(=O)[C@@H]5[C@@H](O)[C@@H](C)CN5C(=O)[C@H]([C@H](C)O)NC(=O)[C@H]([C@H](O)[C@@H](O)c5ccc(O)cc5)NC(=O)[C@@H]5C[C@@H](O)CN5C(=O)[C@H]([C@H](C)O)NC4=O)cc3)cc2)cc1,,0.015 µg/mL
Oc1cc(O)cc(O)c1,agar,>1000 µg/mL
C/C(=N\NC(=O)c1ccc(Cl)cc1)c1ccc(-n2ccnc2)cc1,broth dilution,>737.9 µM
C/C=C/c1ccc(O)c(OC)c1,agar,94 µg/mL
C[C@H]1[C@H](O)[C@@H](C)/C=C/C=C/C=C/C=C/C=C/C=C/C=C/[C@H](O[C@@H]2O[C@H](C)[C@@H](O)[C@H](N)[C@@H]2O)C[C@@H]2O[C@](O)(C[C@@H](O)C[C@@H](O)CC[C@H](O)[C@@H](O)C[C@@H](O)CC(=O)O[C@H]1C)C[C@H](O)[C@H]2C(=O)O,,1–2 µg/mL

Repeating the final 2 entries:

compound	read by	result
C/C=C/c1ccc(O)c(OC)c1	agar	94 µg/mL
C[C@H]1[C@H](O)[C@@H](C)/C=C/C=C/C=C/C=C/C=C/C=C/C=C/[C@H](O[C@@H]2O[C@H](C)[C@@H](O)[C@H](N)[C@@H]2O)C[C@@H]2O[C@](O)(C[C@@H](O)C[C@@H](O)CC[C@H](O)[C@@H](O)C[C@@H](O)CC(=O)O[C@H]1C)C[C@H](O)[C@H]2C(=O)O		1–2 µg/mL